One sequence from patent US11268099 can be followed below.

This series deals with 2G12 (anti-HIV-1 gp120 carbohydrate-binding monoclonal antibody). Briefly: competition with a labelled probe. Particulars: all T in random region are EdU click-glycosylated with Man9 (3 sites); binding competed by 200 nM gp120 JR-FL; purified recombinant protein; protein details: Polymun Scientific; label: 5'-32P; single-stranded DNA.

The exact form of at least one protein or probe is not confirmed.

For the sequence “CGGGTACGGGAGACCCACGGTGCAACCTACGGATAAAGCACACAGGAGACGACAAG [Clone 1 glycoDNA]”, the binding result is given as “binds”.
